Measured values published in EP2632470B1 (priority 2010, dated 2012).
Where a name gives a salt, the structure may show the parent alone.

experiment: Iron affinity, stepwise association constant log K1; assay type: physicochemical; conditions: (c) interpolated from correlation between Zn^2+ and Fe^2+ data

| SMILES | Iron Affinity, log K1 Fe^2+, pH = 7.4 |
| --- | --- |
| Oc1ccc2ccccc2c1N=Nc1nccs1 [1-(2-Thiazoylazo)-2-naphthol] | 6.6 (c) |
| c1ccc(-c2cccc(-c3ccccn3)n2)nc1 [2,2':6',2"-terpyridine] | 5.0 (c) |
| Cc1ccc2ccc3ccc(C)nc3c2n1 [2,9-dimethyl-1,10-phenanthroline] | 3.3 (c) |
| Cc1c(O)c(=O)ccn1C [3-Hydroxy-1,2-dimethyl-4(1H)-pyridone] | 3.9 (c) |
| N[C@@H](COP(=O)(O)O)C(=O)O [L-2-Amino-3-phosphopropanoic acid] | 2.3 (c) |
| O=C(O)CN(CCO)CCO [N,N-Bis(2-hydroxyethyl)glycine (Bicine), N,N-Bis(2-hydroxyethyl)glycine] | 3.6 (c) |
| NCCC(=O)N[C@@H](Cc1c[nH]cn1)C(=O)O [beta-Alanyl-L-histidine (L-Carnosine), beta-Alanyl-L-histidine] | 1.3 (c) |
| O=c1cc(CO)occ1O [kojic acid] | 3.7 (c) |

same assay, conditions: (d) interpolated from correlation between Fe^3+ and Fe^2+ data

| SMILES | Iron Affinity, log K1 Fe^2+, pH = 7.4 |
| --- | --- |
| CCCCCCCCOc1cccc(=O)n1O [HP-101, N-Hydroxy-6-octyloxypyridine-2(1H)one, ethanolamine salt] | 5.4 (d) |

same assay, conditions: (e) interpolated from correlation between Cu^2+ and Fe^2+ data

| SMILES | Iron Affinity, log K1 Fe^2+, pH = 7.4 |
| --- | --- |
| C1CNCCNCCNCCNCCNCCN1 [1,4,7,10,13,16-Hexaazacyclooctadecane] | 13.3 (e) |

experiment: not given; conditions: source (a) NIST Standard Reference Database 46; cited from earlier work

| SMILES | Iron Affinity, log K1 Fe^2+, pH = 7.4 |
| --- | --- |
| O=C(O)CN1CCCN(CC(=O)O)CCN(CC(=O)O)CCCN(CC(=O)O)CC1 [1,4,8,11-Tetraazacyclotetradecane-N,N',N",N'''-tetraacetic acid] | 9.9 (a) |
| S=C(N=Nc1ccccc1)NNc1ccccc1 [1,5-Diphenyl-1,2,4,5-tetraazapent-1-en-3-thione] | 6.5 (a) |
| Oc1ccc(N=Nc2nccs2)c(O)c1 [4-(2-thiazolylazo)-resorcinol] | 3.2 (a) |

same assay, conditions: source (b) IUPAC Stability Constant Database; cited from earlier work

| SMILES | Iron Affinity, log K1 Fe^2+, pH = 7.4 |
| --- | --- |
| Oc1c(Cl)cc(Cl)c2cccnc12 [5,7-dichloro-8-hydroxyquinoline] | 7.2 (b) |
| Oc1c(I)cc(Cl)c2cccnc12 [5-Chloro-8-hydroxy-7-iodoquinoline] | 7.0 (b) |
